PubChem BioAssay AID1259414 | Drosophila RNAi Screening Center, 2018
Purpose: 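Host factors increasing or decreasing Wolbachia levels in cultured fly cells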 (primary screen). Cell system: Drosophila JW18 cells infected with Wolbachia. Reagents: long dsRNA against Drosophila genes, 0.25 µg dsRNA per well of a 384-well plate. Duration: 5 days. Challenge: cells persistently infected with Wolbachia before knock-down; no added drug. Measurement: 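Imaged fluorescence in situ signal for Wolbachia 23S rRNA per DAPI-counted host cell, given as a robust z-score within each plate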. Direction: Wolbachia per cell robust z: higher = more Wolbachia per host cell than the plate typical. Call rule: 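Hit when robust z is 1.5 or more, or -1.5 or less, in at least two of three replicates; excludes dsRNAs with several or no targets, genes not expressed in JW18 and well A1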.
The deposit covers about 24,000 reagents; this is an unselected part of those that have a named target and a result. Over the whole deposit, about 1,210 (5%) are marked active. 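Inactive calls also include excluded dsRNAs with several or no targets, genes unexpressed in JW18, and well A1, regardless of score.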 A plus sign joins genes that one reagent is predicted to hit.

Ak6 [DRSC07274] gave Wolbachia per cell robust z, rep 1 = -0.613; Wolbachia per cell robust z, rep 2 = -0.168; Wolbachia per cell robust z, rep 3 = -2.33; inactive. Ak6 [DRSC41364] showed Wolbachia per cell robust z, rep 1 = -2.68; Wolbachia per cell robust z, rep 2 = -0.723; Wolbachia per cell robust z, rep 3 = -2.44; active. For yellow-e2 [DRSC15169] the deposit lists Wolbachia per cell robust z, rep 1 = -5.05; Wolbachia per cell robust z, rep 2 = 0.543; Wolbachia per cell robust z, rep 3 = 0.772; inactive. With knock-down of CG31551 [DRSC12159], the screen gave Wolbachia per cell robust z, rep 1 = 0.403; Wolbachia per cell robust z, rep 2 = 0.567; Wolbachia per cell robust z, rep 3 = -0.379; inactive. Against CG31551 [DRSC22403], the entry reads Wolbachia per cell robust z, rep 1 = 1.08; Wolbachia per cell robust z, rep 2 = 0.0272; Wolbachia per cell robust z, rep 3 = 0.373; inactive. Knock-down of CG31551 [DRSC27808] gave: Wolbachia per cell robust z, rep 1 = -1.46; Wolbachia per cell robust z, rep 2 = -1.54; Wolbachia per cell robust z, rep 3 = -0.908; inactive.

After knock-down of CG33695 + cana [DRSC03503], the record shows Wolbachia per cell robust z, rep 1 = -0.341; Wolbachia per cell robust z, rep 2 = 0.832; Wolbachia per cell robust z, rep 3 = -7.98; inactive. Knock-down of Cpr49Ab [DRSC05341] came out at: Wolbachia per cell robust z, rep 1 = 0.465; Wolbachia per cell robust z, rep 2 = 1.12; Wolbachia per cell robust z, rep 3 = 1.02; inactive. Knock-down of Cpr49Ab [DRSC25034] resulted in: Wolbachia per cell robust z, rep 1 = 1.16; Wolbachia per cell robust z, rep 2 = 0.291; Wolbachia per cell robust z, rep 3 = 1.33; inactive. For sip1 [DRSC03609] the deposit lists Wolbachia per cell robust z, rep 1 = 0.437; Wolbachia per cell robust z, rep 2 = 0.394; Wolbachia per cell robust z, rep 3 = 0.47; inactive. Against sip1 [DRSC22648], the entry reads Wolbachia per cell robust z, rep 1 = -1.4; Wolbachia per cell robust z, rep 2 = -0.264; Wolbachia per cell robust z, rep 3 = -0.0845; inactive. sip1 [DRSC27781] scored Wolbachia per cell robust z, rep 1 = 0.88; Wolbachia per cell robust z, rep 2 = 0.37; Wolbachia per cell robust z, rep 3 = 1.75; inactive.

As entered above:
Ak6 [DRSC41364], Wolbachia per cell robust z, rep 2 = -0.723
Under “Outcome”, Ak6 [DRSC07274] shows inactive
